Assay results reported in patent US20240182848A1, “SULFAMETHOXAZOLE-DEGRADING PSEUDOMONAS SILESIENSIS STRAIN, AND APPLICATION THEREOF” (CHINESE RESEARCH ACADEMY OF ENVIRONMENTAL SCIENCES, priority 2021, published 2024).

Test system: F6a strain
Experiment: Fate of SMX intermediate products during degradation by F6a strain (UPLC-QTOF-MS / HPLC/MS/MS)
Design: species or system Pseudomonas silesiensis
Details: 10 mg/L SMX, R2A medium, absorption peaks followed up to 336 h

Compound | fate of intermediate product (mineralization) during SMX degradation
3-amino-5-carboxyl hydroxylamine [C4] | completely mineralized
Nc1ccc(S(=O)(=O)O)cc1 [C8, 4-aminobenzenesulfonic acid] | completely mineralized
